Measured values from several laboratories, pooled; numbers as filed in NIAID ChemDB.

Shared fields: enzyme or target tests; organism: HIV-1; target: Protease; measure: Ki

Neighbouring rows are from separate reports. An empty or dashed field is not shown.

CC[C@H](C)[C@H](NC(=O)[C@@H]1CCCN1C(=O)C(=O)C(Cc1ccccc1)NC(=O)OCc1ccccc1)C(=O)N[C@@H](CCC(N)=O)C(=O)OC(C)(C)C ; value: 0.15 µM
CC(C)(C)OC(=O)N[C@@H](Cc1ccccc1)[C@@H](O)C[C@@H](Cc1ccc(OCCN2CCOCC2)cc1)C(=O)N[C@H]1c2ccccc2C[C@H]1O ; method: fluorescence ; value: 0.000051 µM
CCC(C1=C(O)C2CCCCCC2OC1=O)c1cccc(NS(=O)(=O)c2ccc(C#N)cn2)c1 ; method: substrate cleavage ; value: 0.0002 µM
COC(=O)c1cccc(CN2C(=O)N(Cc3cccc(-c4ccn[nH]4)c3)[C@H](Cc3ccccc3)[C@H](O)[C@@H](O)[C@H]2Cc2ccccc2)c1 ; strain: RF ; value: 0.00014 µM
CC(C)[C@H](NC(=O)N(C)Cc1ccccn1)C(=O)N[C@@H](Cc1ccccc1)[C@H](O)[C@@H](O)[C@H](Cc1ccccc1)NC(=O)[C@@H](NC(=O)N(C)Cc1ccccn1)C(C)C ; mutations: PR-R8Q ; method: fluorescence ; value: 0.0072 µM
O=C1N(Cc2cccc(-c3nn[nH]n3)c2)[C@H](Cc2ccccc2)[C@H](O)[C@@H](O)[C@@H](Cc2ccccc2)N1Cc1cccc(-c2nn[nH]n2)c1 ; strain: RF ; value: 0.0066 µM
CCC(C1=C(O)C2CCCCCCC2OC1=O)c1cccc(NS(=O)(=O)c2ccc(C#N)cn2)c1 ; method: substrate cleavage ; value: 0.00008 µM
O=[P@]12OC([C@@H](O)[C@@H](Cc3ccccc3)N1Cc1ccc(CO)cc1)[C@@H](Cc1ccccc1)N2Cc1ccc(CO)cc1 ; method: substrate cleavage ; value: 0.0006 µM
CC(C)[C@H](NC(=O)[C@@H](NC(=O)C1CCCC1P(=O)(O)C(Cc1ccccc1)NC(=O)c1ccccc1)C(C)C)C(N)=O ; setting: pH 4.5 ; value: 0.45 µM
COC(=O)c1ccc(CN2[C@H](COc3ccccc3)[C@H](O)[C@@H](O)[C@@H](COc3ccccc3)N(Cc3ccc(C(=O)OC)cc3)S2(=O)=O)cc1 ; mutations: PR-I84V ; value: 1.5 µM
CC(C)[C@H](NC(=O)[C@@H](NC(=O)C1CCCC1P(=O)(O)C(Cc1ccccc1)NC(=O)OCc1ccccc1)C(C)C)C(N)=O ; setting: pH 4.5 ; value: 0.005 µM
O=[P@]12O[C@@H]([C@@H](O)[C@@H](Cc3ccccc3)N1CC1CC1)[C@@H](Cc1ccccc1)N2CC1CC1 ; method: substrate cleavage ; value: 0.23 µM
CCC(C1=C(O)C2CCCC2OC1=O)c1cccc(NS(=O)(=O)c2ccc(C#N)cn2)c1 ; method: substrate cleavage ; value: 0.00015 µM
CC(C)(C)C(=O)c1cccc(CN2C(=O)N(Cc3cccc(C(=O)C(C)(C)C)c3)[C@H](Cc3ccccc3)[C@H](O)[C@@H](O)[C@H]2Cc2ccccc2)c1 ; strain: RF ; method: fluorescence ; value: 0.0036 µM
CN1[C@H](COc2ccccc2)[C@H](O)[C@@H](O)[C@@H](COc2ccccc2)N(C)S1(=O)=O ; mutations: PR-V82A ; value: 3 µM
Cc1cccc(C)c1OCC(=O)N[C@@H](Cc1ccccc1)[C@H](O)CN1CC[C@@H](Sc2ccncc2)C[C@H]1C(=O)NC(C)(C)C ; strain: IIIB ; method: fluorescence ; value: 0.0000055 µM
O=C1N(Cc2cccc(/C=N/O)c2)[C@H](Cc2ccccc2)[C@H](O)[C@@H](O)[C@@H](Cc2ccccc2)N1Cc1cccc(/C=N/O)c1 ; strain: RF ; method: fluorescence ; value: 0.00001 µM
CC(C)[C@H](NC(=O)c1ccc2ccccc2n1)C(=O)N[C@@H](Cc1ccccc1)[C@H](O)CN1CC[C@@H](SCc2cccnc2)C[C@H]1C(=O)NC(C)(C)C ; mutations: PR-I84V ; method: fluorescence ; value: 0.000027 µM
CC(C)[C@H](NC(=O)N(C)Cc1ccccn1)C(=O)N[C@@H](Cc1ccccc1)[C@H](O)[C@H](O)[C@H](Cc1ccccc1)NC(=O)[C@@H](NC(=O)N(C)Cc1ccccn1)C(C)C ; mutations: PR-R8Q ; method: fluorescence ; value: 0.0027 µM
O=[P@]12O[C@@H]([C@@H](O)[C@@H](Cc3ccccc3)N1Cc1ccccc1)[C@@H](Cc1ccccc1)N2Cc1ccccc1 ; method: substrate cleavage ; value: 0.044 µM
CNC(=O)[C@@H](NC(=O)[C@H](OCc1ccc(F)cc1F)[C@H](O)[C@@H](O)[C@@H](OCc1ccc(F)cc1F)C(=O)N[C@H](C(=O)NC)C(C)C)C(C)C ; value: 0.0012 µM
CC(C)[C@H](NC(=O)[C@@H](NC(=O)C(Cc1ccccc1)CP(=O)(O)C(Cc1ccccc1)NC(=O)c1ccccc1)C(C)C)C(N)=O ; setting: pH 4.5 ; value: 0.0006 µM
CCC(C)[C@H](NC(=O)[C@@H](C[C@H](O)[C@H](CC1CCCCC1)NC(=O)C(Cc1cnc[nH]1)N(C)C(=O)COc1cccc2ccccc12)C(C)C)C(=O)NCc1ccccn1 ; value: 0.03 µM
CC(C)[C@H](NC(=O)CNC(=O)OCc1ccccc1)C(=O)N[C@@H](Cc1ccccc1)[C@@H](O)[C@H](O)[C@H](Cc1ccccc1)NC(=O)[C@@H](NC(=O)CNC(=O)OCc1ccccc1)C(C)C ; value: 0.0017 µM
CCC(c1cccc(NS(=O)(=O)c2ccc(C#N)cn2)c1)c1c(O)c2c(oc1=O)CCCCCCCC2 ; method: substrate cleavage ; value: 0.00025 µM
O=C1N(Cc2cccc(-c3ncn[nH]3)c2)[C@H](Cc2ccccc2)[C@H](O)[C@@H](O)[C@@H](Cc2ccccc2)N1Cc1cccc(-c2ncn[nH]2)c1 ; strain: RF ; method: fluorescence ; value: 0.000052 µM
O=S1(=O)N(Cc2cccc(-c3cccs3)c2)[C@H](COc2ccccc2)[C@H](O)[C@@H](O)[C@@H](COc2ccccc2)N1Cc1cccc(-c2cccs2)c1 ; mutations: PR-I84V ; value: 83 µM
CCC(c1ccccc1)c1c(O)c2ccccc2oc1=O ; method: fluorescence ; value: 1 µM
C/C(=N\O)c1cccc(CN2[C@H](COc3ccccc3)[C@H](O)[C@@H](O)[C@@H](COc3ccccc3)N(Cc3cccc(/C(C)=N/O)c3)S2(=O)=O)c1 ; value: 0.059 µM
O=C1N(Cc2cccnc2)[C@H](Cc2ccccc2)[C@H](O)[C@@H](O)[C@@H](Cc2ccccc2)N1Cc1cccc(-c2ccn[nH]2)c1 ; strain: RF ; value: 0.00017 µM
CCC(c1ccccc1)c1c(O)c2c(oc1=O)CCCCCCCC2 ; method: substrate cleavage ; value: >2 µM
O=C1N(Cc2cccc(-c3cnc[nH]3)c2)[C@H](Cc2ccccc2)[C@H](O)[C@@H](O)[C@@H](Cc2ccccc2)N1Cc1cccc(-c2cnc[nH]2)c1 ; strain: RF ; method: fluorescence ; value: 0.00019 µM
CNC(=O)[C@@H](NC(=O)[C@H](OCc1ccccc1)[C@H](O)[C@H](O)[C@@H](OCc1ccccc1)C(=O)N[C@H](C(=O)NC)C(C)C)C(C)C ; value: 0.00128 µM
O=C(NC(Cc1ccccc1)P(=O)(O)CC(Cc1ccccc1)C(=O)O)c1ccccc1 ; setting: pH 4.5 ; value: 10 µM
O=S1(=O)N(Cc2cccc(I)c2)[C@H](COc2ccccc2)[C@H](O)[C@@H](O)[C@@H](COc2ccccc2)N1Cc1cccc(I)c1 ; mutations: PR-G48V L90M ; value: 0.079 µM

For reference, 5 entries again:

| compound | strain | mutations | method | setting | value |
|---|---|---|---|---|---|
| O=[P@]12O[C@@H]([C@@H](O)[C@@H](Cc3ccccc3)N1CC1CC1)[C@@H](Cc1ccccc1)N2CC1CC1 |  |  | substrate cleavage |  | 0.23 µM |
| O=C1N(Cc2cccc(-c3cnc[nH]3)c2)[C@H](Cc2ccccc2)[C@H](O)[C@@H](O)[C@@H](Cc2ccccc2)N1Cc1cccc(-c2cnc[nH]2)c1 | RF |  | fluorescence |  | 0.00019 µM |
| CC(C)[C@H](NC(=O)[C@@H](NC(=O)C1CCCC1P(=O)(O)C(Cc1ccccc1)NC(=O)OCc1ccccc1)C(C)C)C(N)=O |  |  |  | pH 4.5 | 0.005 µM |
| CCC(C1=C(O)C2CCCCCC2OC1=O)c1cccc(NS(=O)(=O)c2ccc(C#N)cn2)c1 |  |  | substrate cleavage |  | 0.0002 µM |
| CC(C)[C@H](NC(=O)N(C)Cc1ccccn1)C(=O)N[C@@H](Cc1ccccc1)[C@H](O)[C@H](O)[C@H](Cc1ccccc1)NC(=O)[C@@H](NC(=O)N(C)Cc1ccccn1)C(C)C |  | PR-R8Q | fluorescence |  | 0.0027 µM |